Reference: patent US20060223055A1 (published 2006)

Assays:
Test in all cases: restatement of the GST pull-down and co-immunoprecipitation results
[1] = molecular target: HPV16 E2 F121A (pCMV4-16E2 mutant, expressed in C33A cells) (human papillomavirus 16 (HPV16))
[2] = molecular target: HPV16 E2 Y178A (pCMV4-16E2 mutant, expressed in C33A cells) (human papillomavirus 16 (HPV16))
[3] = molecular target: HPV16 E2 Y138A (pCMV4-16E2 mutant, expressed in C33A cells) (human papillomavirus 16 (HPV16))
[4] = molecular target: HPV16 E2 E39A (pCMV4-16E2 mutant, expressed in C33A cells) (human papillomavirus 16 (HPV16))

Measured: binding result

B1: His-Xpress-SV40NLS-HBrd41047-1362 (other)
chain: RHHKSDPYSTGHLREAPSPLMIHSPQMSQFQSLTHQSPPQQNVQPKKQELRAASVVQPQPLVVVKEEKIHSPIIRSEPFSPSLRPEPPKHPESIKAPVHLPQRPEMKPVDVGRPVIRPPEQNAPPPGAPDKDKQKQEPKTPVAPKKDLKIKNMGSWASLVQKHPTTPSSTAKSSSDSFEQFRRAAREKEEREKALKAQAEHAEKEKERLRQERMRSREDEDALEQARRAHEEARRRQEQQQQQRQEQQQQQQQQAAAVAAAATPQAQSSQPQSMLDQQRELARKREQERRRREAMAATIDMNFQSDLLSIFEENLF
notes: also called His-Xpress-SV40NLS-hBrd4-CTD; Xpress-tagged Brd4-CTD
binds: all assays above
